Assay [1] deals with memory CD8+ T cells of convalescent COVID-19 patients; target cells expressing only HLA-A*01:01. Type of assay: cell-based, human.
In assay [2] the test system is memory CD8+ T cells of convalescent COVID-19 patients; target cells expressing only HLA-A*11:01. It is filed as cell-based, human.

Consider TACTDDNALAYY, for which, in assay [1], the “# of patients enriching epitope >1.5 (moderate stringency)” value is given as 5; the “# of patients enriching epitope >5 (high stringency)” value is recorded as 1; the “epitope enrichment, patient A01-01-01-030” value is 6.71; the “epitope enrichment, patient A01-01-02-019” value amounted to 4.08. In assay [1], the “epitope enrichment, patient A0101_01-01-003” value was found to be 4.00; the “epitope enrichment, patient A0101_01-01-007” value was found to be 1.55; the “epitope enrichment, patient A0101_01-01-009” value came to 3.23.

As for KAYNVTQAFGR, in assay [2], the “# of patients enriching epitope >1.5 (moderate stringency)” value was found to be 3; the “# of patients enriching epitope >5 (high stringency)” value came out at 0; the “epitope enrichment, patient A11-01-01-039” value is recorded as 0.98; the “epitope enrichment, patient A11-01-02-012” value turned out to be 0.38. Also, in assay [2], the “epitope enrichment, patient A1101_01-01-003” value came to 1.71; the “epitope enrichment, patient A1101_01-02-007” value is 4.44; the “epitope enrichment, patient A1101_01-02-008” value is reported as 2.20.

Consider ACTDDNALAYY, for which, in assay [1], the “# of patients enriching epitope >1.5 (moderate stringency)” value turned out to be 5; the “# of patients enriching epitope >5 (high stringency)” value stood at 1; the “epitope enrichment, patient A01-01-01-030” value is listed as 6.71; the “epitope enrichment, patient A01-01-02-019” value amounted to 4.08. Also, in assay [1], the “epitope enrichment, patient A0101_01-01-003” value was 4.00; the “epitope enrichment, patient A0101_01-01-007” value was determined as 1.55; the “epitope enrichment, patient A0101_01-01-009” value is recorded as 3.23.

On to ACTDDNALAY, for which, in assay [1], the “# of patients enriching epitope >1.5 (moderate stringency)” value is recorded as 5; the “# of patients enriching epitope >5 (high stringency)” value is given as 1; the “epitope enrichment, patient A01-01-01-030” value is given as 6.71; the “epitope enrichment, patient A01-01-02-019” value amounted to 4.08. For the same sequence, in assay [1], the “epitope enrichment, patient A0101_01-01-003” value amounted to 4.00; the “epitope enrichment, patient A0101_01-01-007” value is listed as 1.55; the “epitope enrichment, patient A0101_01-01-009” value came out at 3.23.
